{"source": "paper PMC10052836", "key": {"[1]": {"biological_target": "T1, DzrR25416 (Burkholderia cepacia ATCC 25416) (UniProt A0AAX2RWE4)", "T1 sequence (looked up, limits assumed)": "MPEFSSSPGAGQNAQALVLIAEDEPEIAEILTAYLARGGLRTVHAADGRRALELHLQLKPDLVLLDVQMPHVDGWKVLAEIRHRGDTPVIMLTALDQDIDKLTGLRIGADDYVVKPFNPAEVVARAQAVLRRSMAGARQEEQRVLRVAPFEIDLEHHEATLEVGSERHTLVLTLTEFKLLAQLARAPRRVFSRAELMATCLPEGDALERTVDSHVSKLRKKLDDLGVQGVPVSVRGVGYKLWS", "assay": "DNase I footprinting", "settings": "footprinting: about 400 ng probe, 1 uM protein, 40 ul, 25 C 30 min, salt and pH not given, recombinant protein, probe letters rebuilt from the primers and the genome"}, "[2]": {"biological_target": "T1, DzrR25416 (Burkholderia cepacia ATCC 25416)", "assay": "EMSA", "settings": "EMSA: LightShift Chemiluminescent EMSA Kit, 20 ul, 20 fmol probe, 28 C 20 min, 6% native PAGE, recombinant protein"}}, "note": "The exact form of at least one protein or probe is not confirmed. At least one verdict rests on a figure or table, not on a statement of the authors. Protein sequences can lack the tags named with them."}
{"sequence": "AGCAATGGGCATGGATTGCGTATGAACAGTCATTGGTCAGCTCATGATAAAAAATGCGGTTCTCCATCATATCTCCATATTTCTCCAACGGAAACCGCACACAGAAAATGCACACTCTCTCAGTCTGGCCTTACTATGGTCGGTAAATAGGGATTACAACGTCATATGAATACTAAGAAATCGCATCAATATCCGATCGCCTGCATGTTACCGGCCTGTCGG (double strand) [PdesAB]", "values": [{"measurement": "binding result", "setting": "[1]; 1 uM DzrR25416", "value": "binds"}]}
{"sequence": "TCATGGGAACGCGCGAAGGTTCCCGGTTATGGGAGCACGCGCTCCGGATGTAAAGCGCCGACACCGCCGCCGCATCGCCGTTCCGCGATTCTTTCGCCGCCTCCATCAAACCTCCATCTTTCCGCACAAAAAACTCCATCGGGCACACGCACACTGCGAACCGAAAATGCGGGCCATCGGGTGCCTGCGTCCCATGGAGTCCACATGAAGAATCAGAAACGA (double strand) [PdesB25416]", "values": [{"measurement": "binding result", "setting": "[2]; probe letters rebuilt from the primers and the genome", "value": "binds"}, {"measurement": "binding result", "setting": "[1]; 1 uM DzrR25416, dzrR box", "value": "binds"}]}
{"sequence": "TGGAGAAATATGGAGATATGATGGAGAACCGCATTTT (double strand) [PdesAB(37)]", "values": [{"measurement": "binding result", "setting": "[2]; label: 5' biotin on strand 1", "value": "binds"}]}
